The values that follow come from patent US20230265170A1.

Holding throughout (assay): cell-based or functional assay
The target in test [1] is SARS-CoV-2 Victoria spike (S) protein (Wuhan + S247R) (SARS-CoV-2).
Test [2] deals with SARS-CoV-2 spike (S) protein, Omicron BA.4/5 (SARS-CoV-2) (UniProt P0DTC2).
For test [3], the target named is SARS-CoV-2 spike (S) protein, Omicron BA.2.75 (SARS-CoV-2) (UniProt P0DTC2).
The target in test [4] is SARS-CoV-2 spike (S) protein, Omicron BA.2.3.20 (SARS-CoV-2) (UniProt P0DTC2).
Test [5] deals with SARS-CoV-2 spike (S) protein, Omicron BA.2 (SARS-CoV-2) (UniProt P0DTC2).
The target in test [6] is SARS-CoV-2 spike (S) protein, Omicron BA.2.75.2 (SARS-CoV-2) (UniProt P0DTC2).
Test [7] has as its target SARS-CoV-2 spike (S) protein, Victoria strain (Wuhan + S247R) (SARS-CoV-2).
For test [8], the target named is SARS-CoV-2 spike (S) protein, Omicron BA.4.6 (SARS-CoV-2) (UniProt P0DTC2).
Test [9] concerns the target SARS-CoV-2 spike (S) protein, Omicron BA.1.1 (SARS-CoV-2) (UniProt P0DTC2).
Test [10] concerns the target SARS-CoV-2 spike (S) protein, Omicron BA.4/5 (SARS-CoV-2) (UniProt P0DTC2). The source holds these as a separate data set.
Test [11] addresses SARS-CoV-2 spike (S) protein, Omicron BA.2.75 (SARS-CoV-2) (UniProt P0DTC2). The source holds these as a separate data set.
Test [12] addresses SARS-CoV-2 spike (S) protein, Victoria strain (SARS-CoV-2).
Test [13] has as its target SARS-CoV-2 spike (S) protein, Omicron BA.2 (SARS-CoV-2) (UniProt P0DTC2). This is another data set of the same source.
Test [14] concerns the target SARS-CoV-2 spike (S) protein, Omicron BA.3 (SARS-CoV-2) (UniProt P0DTC2).
The target of test [15] is SARS-CoV-2 Victoria spike (S) protein (SARS-CoV-2).
Test [16] addresses SARS-CoV-2 Delta (B.1.617.2) spike (S) protein (SARS-CoV-2) (UniProt P0DTC2).
Test [17] addresses SARS-CoV-2 Alpha (B.1.1.7) spike (S) protein (SARS-CoV-2) (UniProt P0DTC2).
For test [18], the target named is SARS-CoV-2 spike (S) protein, Victoria strain (SARS-CoV-2). This is another data set of the same source.
Test [19] concerns the target SARS-CoV-2 Omicron BA.1.1 spike (S) protein (SARS-CoV-2).
Test [20] concerns the target SARS-CoV-2 Omicron BA.1 spike (S) protein of the live isolate (SARS-CoV-2).
Test [21] concerns the target SARS-CoV-2 Omicron BA.4.6 spike (S) protein (SARS-CoV-2).
Test [22] concerns the target SARS-CoV-2 Gamma (P.1) spike (S) protein (SARS-CoV-2) (UniProt P0DTC2).
In test [23] the target is SARS-CoV-2 spike (S) protein, Omicron BA.1 (SARS-CoV-2) (UniProt P0DTC2).
Test [24] addresses SARS-CoV-2 Omicron BA.4/5 spike (S) protein (SARS-CoV-2).
Test [25] deals with SARS-CoV-2 Beta (B.1.351) spike (S) protein (SARS-CoV-2) (UniProt P0DTC2).
The target of test [26] is SARS-CoV-2 spike (S) protein, Omicron BA.1.1 (SARS-CoV-2) (UniProt P0DTC2). The source holds these as a separate data set.
Test [27] deals with SARS-CoV-2 spike (S) protein, Omicron BA.2 + N460K (SARS-CoV-2) (UniProt P0DTC2).

Read-outs that look alike come from different tables or passages of the source. Some results are limits rather than exact numbers.

Turning to Ly-CoV1404 (antibody), the IC50, pseudoviral neutralization in test [1] worked out at 1 ng/mL. The IC50 (pseudovirus neutralization) was 1 ng/mL in [2]; 22 ng/mL in [3]; 13 ng/mL in [4]; 1 ng/mL in test [5]; 1 ng/mL in test [6]; 1 ng/mL in test [7]. In test [8], this substance had an IC50 (pseudovirus neutralization) of 1 ng/mL. Besides, the IC50, pseudovirus was determined as 1 ng/mL in test [9]; 2 ng/mL in [10]; 2 ng/mL in [11]; 1 ng/mL in test [12]; 2 ng/mL in [13]; 2 ng/mL in test [14].

As for AZD7442, the figures for the IC50, pseudoviral neutralization in [1], in [19] and in test [21] were 1 ng/mL, 806 ng/mL and greater than 10000 ng/mL, respectively. The IC50 (pseudovirus neutralization) in [2] was 65 ng/mL; in test [3] it was 17 ng/mL; in test [4], 26 ng/mL; in test [5], 3 ng/mL; in test [6], greater than 10000 ng/mL; in test [7], 1 ng/mL. This substance registered an IC50 (pseudovirus neutralization) in test [8] greater than 10000 ng/mL. Besides, the IC50 (ug/ml), authentic virus turned out to be 0.009 µg/mL in test [15]; 0.005 µg/mL in test [16]; 0.007 µg/mL in test [17]; 3.82 µg/mL in test [19]; 0.273 µg/mL in test [20]; 0.006 µg/mL in test [22]. For the same substance, the IC50, pseudovirus in test [18] was determined as 1 ng/mL; in [5], 8 ng/mL; in [9], 805 ng/mL; in test [23], 252 ng/mL.

Substance Ly-CoV1404 came in with an IC50, pseudovirus in test [23] of 2 ng/mL.

Regarding S309 (antibody), the IC50 (ug/ml), authentic virus turned out to be 0.04 µg/mL in test [15], 1.12 µg/mL in test [19] and 0.256 µg/mL in test [20]. Further, the IC50, pseudoviral neutralization in test [24] is 589 ng/mL. Also, the IC50, pseudovirus in test [18] stood at 130 ng/mL; in test [12], 79 ng/mL.

On to ADG20 (antibody), for which the IC50 (ug/ml), authentic virus in [25] came out at 0.01 µg/mL; in [15], 0.004 µg/mL; in test [16] it was 0.006 µg/mL; in test [17], 0.006 µg/mL; in [19], 1.27 µg/mL; in test [20], 1.1 µg/mL. Also, the IC50 (ug/ml), authentic virus in [22] was determined as 0.009 µg/mL. Also, the IC50, pseudoviral neutralization in [1] was determined as 3 ng/mL; in test [19], 253 ng/mL. In addition, the IC50, pseudovirus is 3 ng/mL in test [18] and 8 ng/mL in test [12]. For the same substance, the IC50 (pseudovirus neutralization) in test [7] amounted to 5 ng/mL.

For the substance Omi-42 (antibody), the IC50 against PV in test [26] came out at 6 ng/mL; in test [3], 3 ng/mL; in [18], 13 ng/mL; in test [27], 7 ng/mL. The figures for the concentration for half-maximal inhibition (IC50) in test [3] and in [27] were 3 ng/mL and 7 ng/mL, respectively. The IC50 (pseudovirus neutralization) in test [3] is 3 ng/mL; in test [4], 28 ng/mL; in test [7], 33 ng/mL; in test [8] it was 10 ng/mL.
